## Primary screen of a compound library

The values are deposited in ChEMBL (CHEMBL3988442, “University of Dundee, Small-Polar-MMV Screening Library” (2021)).

Mtb cholesterol medium: 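Phenotypic screen: M. tuberculosis growth, cholesterol and DPPC medium, 4 days; the read-out is not stated. Compounds at 500 µM. Direction is inferred from retests: higher values go with more growth inhibition. Of about 18,000 compounds tested this way, about 900 (5%) reached 50% or more in at least one test.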
Mtb glucose medium: 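Whole-cell growth test on Mycobacterium tuberculosis, read after 3 days in glucose-containing 7H9 medium; the read-out is not stated. Tested at 500 µM. Higher reads as more growth inhibition (inferred: compounds with an IC50 in retests scored well above the rest). Size under these conditions: about 18,000 compounds, about 1,400 of them at 50% or above in at least one test.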

Values are the deposited “Percent Effect”, in %.
How 0% and 100% were set is not recorded. Most values in the screen are low, and negative values occur.
This is part of a subset picked to be rich in strong results.
A dash means the value is not listed here; it may have been measured.

compound,Mtb cholesterol medium,Mtb glucose medium
CC1(CNC(=O)CCOc2ccccc2)COC1,-,16.29%
Cc1ccc(-c2noc([C@H](N)CCCN)n2)nn1,-,2.985%
CCOC(=O)C1CCCN(Cc2cccnc2)C1 (stereo not drawn),15.56%,-
Cc1ccc2c(c1)C(N)C(=O)N2C (stereo not drawn),-12.2%,7.29%
NC(=O)c1ccc(S(=O)(=O)N2CCNCC2)o1,5.234%,-
CC(C)CNc1nnc(SCCS(C)(=O)=O)s1,-,31.44%
CCN1CC(C(=O)Nc2cn(C)cc(Br)c2=O)CC1=O (stereo not drawn),5.426%,-
O=C(Nc1ncc(Br)cn1)c1ccco1,-,39.18%
Cc1ccoc1C(=O)N1CCCC(O)(CN(C)C)CC1 (stereo not drawn),8.889%,-
CCOC(=O)Cc1csc(NC(=O)c2ccccn2)n1,-,1.124%
CNC(=O)NC(=O)CSc1ccccc1F,-,51.51%
CC(=O)N1CCN(C(=O)c2cc3ccccc3o2)CC1,-,16.75%
CC(CNC(=O)N[C@@H](C)C(=O)N(C)C)Cc1cccs1 (stereo partly drawn),65.62%,79.91%
CCOc1cc(NCc2ccccc2CO)ncn1,-,-1.912%
OCc1cnc(-c2ccco2)o1,-,-5.097%
CN(CC(=O)NCCCO)C(=O)c1ccccc1,-,7.201%
C=C(C)CNC(=O)NCCn1c(=O)oc2ccccc21,-,-13.1%
CCn1nccc1[C@@H]1OCCC[C@H]1CN,-,8.444%
Cc1nnc(SC[C@H](O)COCc2ccccc2)s1,70.86%,71.97%
COCCCn1ccc(Nc2ncccc2C#N)n1,6.239%,-
CCn1nccc1[C@@H]1OCC[C@H]1CN,-,16.36%
N#Cc1ccnc(NCCC(=O)NC2CCCCC2)c1,-29.18%,-12.35%
COc1ccccc1N(C)C(=O)Cn1cnnn1,-1.938%,-
CC(C)NC(=O)CNCc1ccc(Br)o1,37.43%,46.33%
CCOCCC1(CN)CCC1,-,0.6584%
NC(=O)C1CCN(C(=O)COC(=O)c2cccs2)CC1,-1.772%,-1.461%
CN(CC(=O)N(C)C)Cc1ccc(F)cc1Cl,0.3099%,-
O=C(CCN1CCCCC1)c1ccc2c(c1)OCO2,28.48%,69.26%
Brc1cncc(C2CCCN2)c1 (stereo not drawn),-,17.43%
NS(=O)(=O)CC1CCN(C(=O)c2ccco2)C1 (stereo not drawn),-12.91%,-
CNCC(=O)NC(C)c1ccc(F)c(OC)c1 (stereo not drawn),-,-0.644%
N#CCCCS(=O)(=O)c1ccc(Cl)cn1,-,18.88%
O=C(Cc1ccc(O)c(Cl)c1)NCC1CCOC1 (stereo not drawn),-,12.11%
CN(C)S(=O)(=O)Nc1cccc(C2SCCS2)c1,-,12.25%
CC1CCCCN1S(=O)(=O)N1CCN(C)CC1 (stereo not drawn),8.764%,-
CN1CCC(CCO)C1 (stereo not drawn),-,9.367%
COCC(C)Oc1cc(C)ccc1CN (stereo not drawn),-,64.36%
CCN(C(=O)CCc1cccnc1)[C@H]1COC[C@@H]1O,-9.878%,-
CC(SCc1cccc(S(=O)(=O)N(C)C)c1)C(N)=O (stereo not drawn),10.27%,-
CCc1cc(C(=O)NCC(C)C)no1,-,6.848%
CN(C)C(=O)C1(N)CCCCC1,-3.977%,-
Cc1nc(CCN(C)C(=O)CCc2cccnc2)no1,-,8.268%
O=C(CN1CCn2ccnc2C1)Nc1ccc(Br)cn1,-2.006%,-
CCNC1=NN=C(c2ccc3c(c2)OCCCO3)CS1,58.96%,64.82%
O=C(CCN1CCN(CCO)CC1)Nc1ccccc1,-,8.999%
CNC(=O)CCCNCc1c(C(C)C)nn(C)c1OC,6.053%,-
N[C@@H]1C[C@@H]2CC[C@H]1O2,2.644%,-
CN(C)c1cccc(C(=O)NCCc2ncnn2C)c1,-,17.18%
CC(N)C(=O)Nc1nc(-c2ccc(O)cc2)cs1 (stereo not drawn),11.65%,-

3 of the entries, repeated:

* O=C(CN1CCn2ccnc2C1)Nc1ccc(Br)cn1 | Mtb cholesterol medium: -2.006%
* NS(=O)(=O)CC1CCN(C(=O)c2ccco2)C1 (stereo not drawn) | Mtb cholesterol medium: -12.91%
* CN(CC(=O)N(C)C)Cc1ccc(F)cc1Cl | Mtb cholesterol medium: 0.3099%